Anti-infective test results gathered from many reports (values: NIAID ChemDB through PubChem).

Shared fields: cytotoxicity tests; cell line: C8166; method: MTT; measure: CC50

Lines come from different laboratories, so protocols vary.

smiles | value
C/C=C(/C)C(=O)O[C@H]1c2cc3c(c4c2C2(CO4)C(=O)C(OC)=C(OC)[C@H]4O[C@@H]([C@@H](C)[C@H]1C)C42O)OCO3 | 112.4 µg/mL
C=C(C)[C@@]1(O)[C@H](OC(C)=O)[C@@H]2[C@H](OC(=O)c3ccccc3)[C@@]3(C)O[C@@]4([C@@H]3OC(C)=O)[C@@H](OC(C)=O)[C@@H](C)C[C@H]4[C@@]2(O)[C@H](C)[C@@H]1OC(=O)c1ccccc1 | >200 µg/mL
O=[N+]([O-])c1ccc(-n2ccc3ccccc32)cc1 | 91.44 µg/mL
CCN(/C=C/c1ccccc1Br)C(C)=O | 358 µM
Cc1ccc(S(=O)(=O)N2CC3(C[C@H]2C(=O)N/N=C/c2ccccc2Cl)SCCS3)cc1 | 30.3 µM
CCn1cc(C(=O)OCC2OC(n3cc(C)c(=O)[nH]c3=O)CC2N=[N+]=[N-])c(=O)c2cc(F)c(N3CCN(C(=O)OCc4ccccc4)C(C)C3)c(F)c21 | >272 µM
CC1(C)Oc2cc3oc(=O)ccc3cc2[C@@H](O)[C@@H]1O | >200 µM
C=C(C)[C@@]1(OC(=O)c2ccccc2)[C@H](OC(C)=O)[C@@H]2[C@H](OC(C)=O)[C@@]3(C)O[C@@]4([C@@H]3OC(=O)c3ccccc3)[C@@H](O)[C@@H](C)C[C@H]4[C@@]2(O)[C@H](C)[C@@H]1OC(C)=O | 106 µg/mL
Cc1cn([C@H]2C[C@H](N=[N+]=[N-])[C@@H](COP(=O)(O)OCc3ccc(C(=O)OC(C)(C)C)cc3)O2)c(=O)[nH]c1=O | 100 µM
[N-]=[N+]=NC1CC(n2cc(CN3CCN(c4cc5c(cc4F)c(=O)c(C(=O)O)cn5C4CC4)CC3)c(=O)[nH]c2=O)OC1CO | >335 µM
O=C(CCc1ccc(O)cc1)c1c(O)cc(O)cc1O[C@@H]1O[C@H](CO)[C@@H](O)[C@H](O)[C@H]1O | >200 µM
CC(C)(C)NC(=O)[C@@H]1C[C@@H]2CCCC[C@@H]2CN1C[C@@H](O)[C@H](Cc1ccccc1)NC(=O)[C@H](CC(N)=O)NC(=O)c1ccc2ccccc2n1 | 90 µM
C=C(CO)[C@@H]1Cc2cc3ccc(=O)oc3cc2O1 | >200 µM
CCN1c2ncc(CSc3ccccc3)cc2C(=O)N(C)c2ccc(Cl)nc21 | >60 µM
COc1ccc(C(=O)CC2(O)C(=O)Nc3ccc(Cl)cc32)cc1OC | >400 µM
Cc1cn([C@H]2C[C@H](N=[N+]=[N-])[C@@H](COP(=O)(OCc3ccc(C(=O)OC(C)(C)C)cc3)OCc3ccc(C(=O)OC(C)(C)C)cc3)O2)c(=O)[nH]c1=O | >100 µM
O=C(CC1(O)C(=O)Nc2ccc(Br)cc21)c1ccccc1Cl | 122 µM
CCOC(=O)c1ccc(COP(=O)(OCc2ccc(C(=O)OCC)cc2)OC[C@H]2O[C@@H](n3cc(C)c(=O)[nH]c3=O)C[C@@H]2N=[N+]=[N-])cc1 | 1 µM
C=C(C)[C@@H]1Cc2c(cc3oc(=O)ccc3c2O)O1 | >200 µM
C=C(C)[C@@]1(O)[C@H](OC(C)=O)[C@@H]2[C@H](OC(=O)c3ccccc3)[C@@]3(C)O[C@@]4([C@@H]3OC(=O)c3ccccc3)[C@@H](O)[C@@H](C)C[C@H]4[C@@]2(O)[C@H](C)[C@@H]1OC(=O)c1ccccc1 | >200 µg/mL
O=[N+]([O-])c1ccccc1-n1ccc2ccccc21 | 191.9 µg/mL
C=C(C)[C@@]1(O)[C@H](OC(C)=O)[C@@H]2[C@H](OC(C)=O)[C@@]3(C)O[C@@]4([C@@H]3OC(=O)c3ccccc3)[C@@H](OC(C)=O)[C@@H](C)C[C@H]4[C@@]2(O)[C@H](C)[C@@H]1OC(=O)c1ccccc1 | >200 µg/mL
O=c1c(O)c(-c2ccc(O)c(O)c2)oc2cc(O)cc(O)c12 | 87.8 µg/mL
COC(O)c1cc(O)c(O)c(O)c1 | 82.79 µM
Cc1cn(C2CC(N=[N+]=[N-])C(COC(=O)c3cn(C4CC4)c4c(F)c(N5CC(C)N(C(=O)OCc6ccccc6)C(C)C5NC(=O)OCc5ccccc5)c(F)cc4c3=O)O2)c(=O)[nH]c1=O | >220 µM
Cc1cn([C@H]2C[C@H](N=[N+]=[N-])[C@@H](CO)O2)c(=O)[nH]c1=O | >509 µM
O=C(O)C1=CC(=C(c2ccc(O)c(C(=O)O)c2)c2ccc(O)c(C(=O)O)c2)C=CC1=O | >500 µg/mL
O=C(CC1(O)C(=O)Nc2ccccc21)c1ccccc1 | >400 µM
Cc1cn([C@H]2C[C@H](N=[N+]=[N-])[C@@H](COP(=O)(O)OCc3ccc(C(=O)OC(C)C)cc3)O2)c(=O)[nH]c1=O | 500 µM
COc1ccc(/C=C/N(C)C(C)=O)c(OC)c1 | 256 µM
COc1c(N2CCN(Cc3cn(C4CC(N=[N+]=[N-])C(CO)O4)c(=O)[nH]c3=O)C(C)C2)c(F)cc2c(=O)c(C(=O)O)cn(C3CC3)c12 | 251 µM
N#Cc1ccccc1-n1ccc2ccccc21 | >200 µg/mL
CCCCCCCCCC(=O)O[C@@H]1[C@@H](C)[C@@]2(O)[C@@H](C=C(CO)C[C@]3(O)C(=O)C(C)=C[C@@H]23)[C@@H]2C(C)(C)[C@]12OC(=O)CCCCCCCCC | >200 µM
OC[C@H]1N[C@H](CO)[C@@H](O)[C@@H]1O | >500 µg/mL
CC(=O)OC(C1C=C(C)C(=O)O1)C(C)C1C2C3(O)OC4(CCC12C)C(=CCC1C(C)(C)OC2CC(=O)OC21C4O)C3=O | 92.3 µg/mL
CC(=O)O[C@@H]1[C@@H](C)[C@@]2(O)[C@@H](C=C(CO)C[C@]3(O)C(=O)C(C)=C[C@@H]23)[C@@H]2C(C)(C)[C@]12OC(C)=O | >200 µM
COc1ccccc1C(=O)CC1(O)C(=O)Nc2ccc(Cl)cc21 | >400 µM
C/C=C/c1cc(=O)c2c(CC(C)=O)cc(O)cc2o1 | 200 µg/mL
CCN(/C=C/c1ccc(OC)cc1OC)C(C)=O | 112 µM
C[C@@H]1C(=O)[C@@]2(C)CC[C@]34C[C@]56OC(=O)C[C@H]5O[C@@](C)(CO)[C@@H]6CC[C@@]3(O)C(=O)[C@@]3(O[C@@]5(C[C@H](C)C(=O)O5)[C@@H]1[C@H]32)O4 | 88 µg/mL
C=CCN(/C=C/c1ccccc1C)C(C)=O | >930 µM
CCn1cc(C(=O)O)c(=O)c2cc(F)c(N3CCN(Cc4cn(C5CC(N=[N+]=[N-])C(CO)O5)c(=O)[nH]c4=O)CC3)cc21 | >342 µM
O=C(CC1(O)C(=O)Nc2ccc(Cl)cc21)c1cccc([N+](=O)[O-])c1 | 121.1 µM
CC1(C)C=Cc2cc3cc(O)c(=O)oc3cc2O1 | >200 µM
COc1cc([C@@H]2c3c(cc(OC)c(O)c3OC)C[C@H](CO)[C@H]2CO)cc(OC)c1O | >200 µM
COc1cc2oc(=O)ccc2cc1C[C@@H](OC)C(C)(C)O | >200 µM
C=C(C)[C@@]12OCO[C@@H]1[C@@H]1[C@H](O)[C@@](C)(O)[C@@H](OC(C)=O)[C@@]3(O)C(C[C@H](C)[C@@H]3O)[C@@]1(Oc1ccccc1)[C@H](C)[C@@H]2OC(=O)c1ccccc1 | >200 µg/mL
O=C(O)P(=O)(O)O | >500 µg/mL
O=C1c2c(O)cc(O)cc2O[C@H](c2ccc(O)c(O)c2)[C@H]1O | 118.9 µg/mL
C/C=C/C(=O)O[C@@H]1[C@@H](O)[C@]2(OC(C)=O)[C@H]([C@@H]3C=C(COC(C)=O)C[C@]4(O)C(=O)C(C)=C[C@H]4[C@@]13O)C2(C)C | >200 µM
CC(C)(O)C(=O)Cc1cc2ccc(=O)oc2cc1O | >200 µM
Cc1cn(-c2ccc([N+](=O)[O-])cc2)c2ccccc12 | 157 µg/mL
C=C(C)[C@@]1(OC(C)=O)[C@H](OC(C)=O)[C@@H]2[C@H](OC(C)=O)[C@@]3(C)O[C@@]4([C@@H]3OC(=O)c3ccccc3)[C@@H](OC(C)=O)[C@@H](C)C[C@H]4[C@@]2(O)[C@H](C)[C@@H]1OC(=O)c1ccccc1 | 19.2 µg/mL
CCN1c2ncc(COc3ccccc3)cc2C(=O)N(C)c2ccc(Cl)nc21 | >60 µM
Oc1cc(O)c2c(c1)O[C@H](c1ccc(O)c(O)c1)[C@H](O)C2 | >200 µg/mL
C[C@H](CCC(=O)NCCS(=O)(=O)O)[C@H]1CC[C@H]2[C@@H]3CC[C@@H]4C[C@H](O)CC[C@]4(C)C3CC[C@]12C | >25 µg/mL
C=C(C)[C@H](O)COc1cc(OC)c2c(c1)C(=O)c1c(O)ccc(O)c1-2 | >200 µg/mL
CC[C@@]1(O)C(=O)OCc2c1cc1n(c2=O)Cc2c-1nc1ccccc1c2CO | 0.1585 µg/mL
Cc1cn(C2CC(N=[N+]=[N-])C(COC(=O)c3cn4c5c(c(N6CCN(C)CC6)c(F)cc5c3=O)OC[C@@H]4C)O2)c(=O)[nH]c1=O | 146 µM
COc1ccccc1C(=O)CC1(O)C(=O)Nc2ccc(Br)cc21 | >400 µM
CC(=O)[C@]12CCC(C)(C)C=C1C1=CCC3[C@@]4(C)CCC(=O)C(C)(C)C4CC[C@@]3(C)[C@]1(C)CC2 | 29.18 µM
O=C(CC1(O)C(=O)Nc2ccccc21)c1ccc(F)cc1 | >400 µM
CCOC(=O)c1ccc(COP(=O)(O)OC[C@H]2O[C@@H](n3cc(C)c(=O)[nH]c3=O)C[C@@H]2N=[N+]=[N-])cc1 | 500 µM

The last 3 rows once more:

smiles | value
CC(=O)[C@]12CCC(C)(C)C=C1C1=CCC3[C@@]4(C)CCC(=O)C(C)(C)C4CC[C@@]3(C)[C@]1(C)CC2 | 29.18 µM
O=C(CC1(O)C(=O)Nc2ccccc21)c1ccc(F)cc1 | >400 µM
CCOC(=O)c1ccc(COP(=O)(O)OC[C@H]2O[C@@H](n3cc(C)c(=O)[nH]c3=O)C[C@@H]2N=[N+]=[N-])cc1 | 500 µM

CCn: concentration that lowers growth or viability of the cells by n%.